# Reference: publication PMC7615677, “DNDI-6174, a preclinical candidate for visceral leishmaniasis that targets the cytochrome bc1 complex” (Science translational medicine, 2023)
# System: L. donovani promastigote cultures
# Assay type: cell-based, Leishmania donovani
# Conditions: DNDI-6174 Res 2 (Asp231Glu)
# Procedure: The clonal L. donovani cell line LdBOB (derived from MHOM/SD/62/1S-CL2D) was grown as promastigotes at 28°C and as axenic amastigotes at 37°C, as described previously ([25]).
# To examine the effects of test compounds on growth in 96-well plates, promastigote or axenic amastigote cultures seeded at 5 × 10^4 parasites mL^–1 were incubated in the presence of 2-fold serial dilutions of test compounds for 72 h. Following incubation, 50 μM resazurin was added to each well and fluorescence (excitation of 528 nm and emission of 590 nm) measured after a further 3 h incubation.
# Starting at sublethal concentrations, drug concentrations in 5 independent cultures were increased in a stepwise manner, usually by 2-fold. […] Five clones (Res 1–5) were selected for further biological study.
smiles,measurement,value
Cc1[nH]c2nc(N)nc(C)c2c1-c1ccc(C#N)c2c1OCO2 [DNDI-6174],Fold-change versus WT,164
